Measurements reported in PubChem BioAssay AID504761 (Drosophila RNAi Screening Center, 2011).
The deposit covers about 22,000 reagents; below is an unselected part of those with a known target gene and a result. Of all reagents, 116 (0.52%) were called active. 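Calls depend on retest data that are not deposited; infection was ranked per plate without normalising between plates; the unit of the infection score is not given.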 The raw values are shown without normalisation. A plus sign joins genes that one reagent is predicted to hit. No sequences are given here. Not stated in the record: the amount of reagent, the time to read-out.

Purpose: 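Insect host genes that dengue virus relies on to spread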 (primary screen)
Cells: D.Mel-2 cells from Drosophila
Reagents: long dsRNA against Drosophila genes
Challenge: infection with dengue virus type 2; dose and infection time not stated
Read-out: 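Per well on two replicate plates, imaging gave the percent of cells positive for viral envelope protein, ranked by infection, and a nuclear count of cells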
Reading the numbers: infection score: higher = more virus-infected cells; cell count: higher = more cells in the well
Hit rule: 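Very low infection ranking in both replicate wells (chance probability at most 0.065), then a retest showing infection dropped 1.5-fold or more at p below 0.05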
Calls: active = confirmed: knock-down lowers infection; inactive = not picked or not confirmed

The first 6 entries, ahead of the listing:
gene | PubChem SID | infection score, replicate 1 | infection score, replicate 2 | cell count, replicate 1 | cell count, replicate 2 | call
CG12945 (GeneID 41204) | SID104194365 | 3.79 | 7.68 | 6382 | 6198 | inactive
Nsun5 (GeneID 7354421) | SID104195627 | 8.25 | 1.98 | 6130 | 6481 | inactive
AIMP3 (GeneID 246507) | SID104184292 | 6.42 | 7.52 | 6469 | 6997 | inactive
AIMP3 (GeneID 246507) | SID104205268 | 4.81 | 3.2 | 6212 | 6412 | inactive
Uba3 (GeneID 36539) | SID104186169 | 28.1 | 18.8 | 4752 | 5985 | inactive
Wee1 (GeneID 33965) | SID104183427 | 4.72 | 9.96 | 6099 | 6493 | inactive

Results, from the first entry:
gene | PubChem SID | infection score, replicate 1 | infection score, replicate 2 | cell count, replicate 1 | cell count, replicate 2 | call
CG12945 (GeneID 41204) | SID104194365 | 3.79 | 7.68 | 6382 | 6198 | inactive
Nsun5 (GeneID 7354421) | SID104195627 | 8.25 | 1.98 | 6130 | 6481 | inactive
AIMP3 (GeneID 246507) | SID104184292 | 6.42 | 7.52 | 6469 | 6997 | inactive
AIMP3 (GeneID 246507) | SID104205268 | 4.81 | 3.2 | 6212 | 6412 | inactive
Uba3 (GeneID 36539) | SID104186169 | 28.1 | 18.8 | 4752 | 5985 | inactive
Wee1 (GeneID 33965) | SID104183427 | 4.72 | 9.96 | 6099 | 6493 | inactive
Wee1 (GeneID 33965) | SID104202675 | 1.24 | 4.98 | 6713 | 7005 | inactive
CG31157 (GeneID 318608) | SID104201480 | 12.3 | 9.92 | 6795 | 6545 | inactive
CG31157 (GeneID 318608) | SID104207703 | 6.33 | 9.21 | 5494 | 5453 | inactive
Patj (GeneID 44100) | SID104188504 | 5 | 12.6 | 6418 | 5767 | inactive
Patj (GeneID 44100) | SID104207258 | 25.5 | 16.3 | 4993 | 5560 | inactive
ND-B17 (GeneID 34925) | SID104181773 | 10.7 | 0.58 | 4660 | 7078 | inactive
Ate1 (GeneID 37288) | SID104185717 | 6.89 | 13.8 | 3105 | 4826 | inactive
Ate1 (GeneID 37288) | SID104203362 | 3.83 | 8.67 | 6523 | 6248 | inactive
cu (GeneID 41339) | SID104195435 | 2.22 | 11.1 | 6308 | 6015 | inactive
cu (GeneID 41339) | SID104195440 | 3.92 | 25.1 | 6074 | 4066 | inactive
CG31457 (GeneID 326142) | SID104202292 | 2.8 | 2.44 | 6136 | 7007 | inactive
CG31457 (GeneID 326142) | SID104207773 | 13.9 | – | 3989 | 254 | inactive
BomBc1 (GeneID 37099) | SID104186293 | 0.58 | 7.72 | 686 | 5881 | inactive
BomBc1 (GeneID 37099) | SID104202863 | 0.19 | 0.05 | 6483 | 6543 | inactive
CG14985 (GeneID 38470) | SID104188235 | 2 | 0.91 | 6288 | 5939 | inactive
Cox10 (GeneID 34394) | SID104182596 | 8.24 | 1.72 | 5791 | 6463 | inactive
CG34417 (GeneID 31591) | SID104198124 | 3.78 | 6.28 | 6319 | 6654 | inactive
CG34417 (GeneID 31591) | SID104198125 | 2.62 | 3.53 | 6029 | 6734 | inactive
CG34417 (GeneID 31591) | SID104207022 | – | – | 378 | 396 | inactive
ave (GeneID 246638) | SID104185294 | 2.3 | 4.51 | 5688 | 5543 | inactive
ave (GeneID 246638) | SID104207106 | – | 15.9 | 363 | 4560 | inactive
heix (GeneID 34961) | SID104183334 | 16.3 | 10.1 | 6168 | 6100 | inactive
Fum4 (GeneID 318995) | SID104202000 | 1.39 | 4.38 | 6540 | 6571 | inactive
Fum4 (GeneID 318995) | SID104203387 | 1.78 | 3.26 | 6529 | 6616 | inactive
RpS20 (GeneID 42464) | SID104196628 | 1.66 | 18 | 6139 | 2452 | inactive
CG10467 (GeneID 38697) | SID104189520 | 3.65 | 4.68 | 5868 | 5427 | inactive
robo3 (GeneID 33314) | SID104180166 | 0.92 | 7.33 | 6285 | 6716 | inactive
robo3 (GeneID 33314) | SID104180476 | 2.55 | 22.4 | 6398 | 6660 | inactive
Hipk (GeneID 38070) | SID104187677 | 5.77 | 2.07 | 6150 | 6041 | inactive
Hipk (GeneID 38070) | SID104202512 | 1.81 | 6.72 | 6723 | 6506 | inactive
MED8 (GeneID 37305) | SID104186218 | 2.61 | 2.43 | 6320 | 6086 | inactive
CG30015 (GeneID 36147) | SID104185033 | 3.26 | 7.12 | 5921 | 5377 | inactive
CG30015 (GeneID 36147) | SID104186819 | 9.37 | 4.53 | 6006 | 6623 | inactive
CG30015 (GeneID 36147) | SID104186820 | 10.7 | 6.35 | 6810 | 2725 | inactive
DIP2 (GeneID 252479) | SID104188374 | 10.9 | 13.4 | 6174 | 4800 | inactive
rgr (GeneID 35843) | SID104186279 | 10.8 | 9.97 | 6048 | 6510 | inactive
rgr (GeneID 35843) | SID104187021 | 17.3 | 12.5 | 6277 | 6763 | inactive
vig (GeneID 34885) | SID104183422 | 6.47 | 1.97 | 6120 | 6280 | inactive
vig (GeneID 34885) | SID104201355 | 1.24 | 3.9 | 6637 | 6957 | inactive
trem (GeneID 42392) | SID104195367 | 2.05 | 0.44 | 6588 | 6419 | inactive
beat-Ia (GeneID 34947) | SID104183281 | 10.2 | 0.97 | 6013 | 6824 | inactive
beat-Ia (GeneID 34947) | SID104204121 | 0.93 | 2.45 | 6440 | 6407 | inactive
ninaD (GeneID 326160) | SID104182678 | 8.4 | 4.34 | 5977 | 6951 | inactive
ninaD (GeneID 326160) | SID104203223 | 1.24 | 1.63 | 5498 | 5901 | inactive
Or63a (GeneID 38354) | SID104188473 | 1.95 | 7.28 | 5798 | 6000 | inactive
Ada1-1 + Ada1-2 | SID104181012 | 5.99 | 0.63 | 6308 | 6521 | inactive
Ada1-1 + Ada1-2 | SID104181014 | 3.04 | 0.01 | 6176 | 6761 | inactive
Ada1-1 + Ada1-2 | SID104207190 | 40.8 | 18.8 | 5180 | 5195 | inactive
mei-P26 (GeneID 45775) | SID104202406 | 4.28 | 2.87 | 6150 | 6406 | inactive
Ntmt (GeneID 36022) | SID104186416 | 1.88 | 6.36 | 6387 | 6510 | inactive
Ntmt (GeneID 36022) | SID104207191 | 2.07 | – | 823 | 398 | inactive
Septin4 (GeneID 32646) | SID104199997 | 14.7 | 3.44 | 6272 | 6396 | inactive
Septin4 (GeneID 32646) | SID104203955 | 7.84 | 7.71 | 5945 | 6366 | inactive
